Data as given in PubChem BioAssay AID504761 (Drosophila RNAi Screening Center, 2011)
The screen tested about 22,000 reagents; shown is a random part of those with a known target gene and a result. Of all reagents, 116 (0.52%) got an active call. 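Calls depend on retest data that are not deposited; infection was ranked per plate without normalising between plates; the unit of the infection score is not given.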 Raw values vary from plate to plate and are shown uncorrected. Unmarked entries are inactive. A plus sign joins genes that one reagent is predicted to hit. The record does not give: the amount of reagent, the time to read-out.

- Test: 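Fly genes whose silencing reduces dengue virus type 2 infection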 (primary screen)
- Cells: D.Mel-2 cells from Drosophila
- Reagent: long dsRNA against Drosophila genes
- Treatment: infection with dengue virus type 2; dose and infection time not stated
- Measurement: 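Per well on two replicate plates, imaging gave the percent of cells positive for viral envelope protein, ranked by infection, and a nuclear count of cells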
- Direction: infection score: higher = more virus-infected cells; cell count: higher = more cells in the well
- Active means: 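Low infection ranks in the two replicates (chance level up to 0.065) followed by a retest with a 1.5-fold or larger significant decrease, p below 0.05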
- Calls: active = confirmed: knock-down lowers infection; inactive = not picked or not confirmed

predicted target	amplicon	infection score, replicate 1	infection score, replicate 2	cell count, replicate 1	cell count, replicate 2
fwd (four wheel drive)	DRSC08580	11.8	3.86	6100	6624
fwd (four wheel drive)	DRSC26680	1.89	0.74	5875	5654
CG17147	DRSC10249	12.1	7.26	6804	7056
CG17147	DRSC29813	19.8	6.09	6466	6162
Rrp6	DRSC16223	10.7	20	750	987
hop (hopscotch)	DRSC20340	1.35	0.54	6352	6515
hop (hopscotch)	DRSC23334	3.15	5.85	6165	6928
hop (hopscotch)	DRSC26551	3.21	7.23	6109	5797
mmy (mummy)	DRSC02002	1.89	5.96	5931	5889
CG3420	DRSC04995	11.9	13.5	6017	5738
CG5235	DRSC10494	1.57	4.09	5748	6484
CG4766	DRSC17736	1.62	1.25	6596	6490
CG8034	DRSC20076	6.12	13.6	6162	6286
CG8034	DRSC29895	8.85	1.99	5992	6021
TyrRII (Tyramine receptor II)	DRSC15150	0.85	1.92	6365	5620
TyrRII (Tyramine receptor II)	DRSC25254	1.45	8.68	5875	5740
CG42490 (retired record)	DRSC01649	1.57	6.14	6188	6595
CG42490 (retired record)	DRSC28297	5.27	0.81	4477	494
Ir52b (Ionotropic receptor 52b)	DRSC06263	11.3	9.07	6714	6702
CG32447	DRSC11732	2.72	27.5	7020	6100
CG32447	DRSC11805	7.28	7.45	6568	6466
Osi22 (Osiris 22)	DRSC16442	4.08	2.27	6960	7045
Osi22 (Osiris 22)	DRSC27176	6.93	13.2	6346	7003
CG6878	DRSC10737	1	3.04	6393	5568
IntS2 (Integrator 2)	DRSC20094	2.96	1.35	5337	5766
Pgm1 (Phosphoglucose mutase 1)	DRSC10490	5.5	6.66	6688	6366
Pgm1 (Phosphoglucose mutase 1)	DRSC28517	0.45	8.34	446	6212
CG2147	DRSC18211	3.31	1.98	6202	6271
CG7320	DRSC10810	3.56	7.61	6608	6719
CG7320	DRSC26050	6.18	7.6	5518	6132
lncRNA:CR32660 (long non-coding RNA:CR32660)	DRSC22965	1.14	4.51	6585	931
lncRNA:CR32660 (long non-coding RNA:CR32660)	DRSC25869	7.1	1.43	6299	6282
CG9664	DRSC00725	3.44	5.2	6134	6962
cGlr1 (cGAS-like receptor 1)	DRSC06270	8.2	9.43	6698	6131
CG31777	DRSC00201	2.86	3.76	5877	5641
CG18139 (retired record) + Hmx	DRSC15307	8.73	1.5	2154	5800
CG31683 + CG18858	DRSC02703	4.3	1.88	6216	6698
CG12511	DRSC02171	3.96	1.29	6111	6874
CG32026	DRSC08950	4.07	1.56	5966	5566
CG32026	DRSC27384	19.6	35.5	5365	3564

5 entries from above, showing only “infection score, replicate 1”.
cGlr1 (cGAS-like receptor 1) [DRSC06270]: 8.2
CG31777 [DRSC00201]: 2.86
CG18139 (retired record) + Hmx [DRSC15307]: 8.73
CG31683 + CG18858 [DRSC02703]: 4.3
CG12511 [DRSC02171]: 3.96
